Laboratory results as given in publication PMC8532962 (Antibiotics, 2021).

Tested on: Histoplasma capsulatum G217B
Settings: 96 h

CC[C@H](C)[C@H](NC(=O)[C@H](CC(=O)O)NC(=O)[C@@H](N)Cc1ccccc1)C(=O)N[C@@H](CC[S+](C)[O-])C(=O)NCC(=O)N[C@@H](CC(C)C)C(=O)N[C@H](C(=O)N[C@@H](CCCCN)C(=O)N[C@@H](CCCCN)C(=O)N[C@H](C(=O)N[C@@H](C)C(N)=O)C(C)C)[C@@H](C)CC (some centres unmarked) [EMP-ER-C3]
MIC Hc: >256 mg/L

CC[C@H](C)[C@H](NC(=O)[C@H](CC(=O)O)NC(=O)[C@@H](N)Cc1ccccc1)C(=O)N[C@@H](CC[S+](C)[O-])C(=O)NCC(=O)N[C@@H](CC(C)C)C(=O)N[C@H](C(=O)N[C@@H](CCCCN)C(=O)N[C@@H](CCCCN)C(=O)N[C@H](C(=O)N[C@@H](C)C(=O)NCC(=O)N[C@@H](C)C(=O)N[C@@H](CC(C)C)C(N)=O)C(C)C)[C@@H](C)CC (some centres unmarked) [EMP-ER-OR]
MIC Hc: >256 mg/L
